Results of unrelated studies side by side (data: NIAID ChemDB).

Shared fields: growth or infection tests; agent: Human herpesvirus 6; read-out: EC50

Blank or dashed fields: not listed here. Conditions beyond the fields shown may differ between rows. ECn: concentration that inhibits the pathogen or its effect by n%.

{"smiles": "Nc1nc(NCC2CC2)c2ncn(/C=C3/C[C@@H]3CO)c2n1", "strain": "TYPE 6B", "cell line": "HSB-2", "method": "flow cytometry", "result": "90 µM"}
{"smiles": "NC1=NC2C(C=CN2CC(CO)CCO)C(=O)N1", "cell line": "Human T-lymphoblasts", "method": "cytopathic effect", "result": "≥50 µM"}
{"smiles": "Cc1c(S(=O)(=O)c2ccc(Cl)cc2)c(NC(=O)C(F)(F)F)n(Cc2ccc(Cl)cc2)c1C", "strain": "Z29 (TYPE 6B)", "cell line": "MOLT-3", "method": "hybridisation", "result": ">10 µg/mL"}
{"smiles": "O[C@@H]1[C@H](O)[C@H](O)CO[C@H]1n1c(Br)nc2cc(Cl)c(Cl)cc21", "strain": "Z-29 (subtype 6B)", "cell line": "CBL", "method": "flow cytometry", "result": ">95 µM"}
{"smiles": "Nc1nc2c(ncn2COC(CO)CO)c(=O)[nH]1", "cell line": "Human cord blood lymphocytes", "method": "cytopathic effect", "result": "0.93 µM"}
{"smiles": "Nc1nc2c(ncn2C[C@]2(CO)C[C@H]2CO)c(=O)[nH]1", "strain": "TYPE 6B", "cell line": "MOLT-3", "method": "cytopathic effect", "result": "3.4 µg/mL"}
{"smiles": "N#CC1C(c2ccc(Cl)cc2)Nc2ccccc2S1(=O)=O", "strain": "Z29 (TYPE 6B)", "cell line": "MOLT-3", "method": "hybridisation", "result": "1.9 µg/mL"}
{"smiles": "Nc1nc(OCC2CC2)c2ncn(/C=C3/C[C@@H]3CO)c2n1", "strain": "TYPE 6A", "cell line": "HSB-2", "method": "flow cytometry", "result": "3.1 µM"}
{"smiles": "O=c1[nH]c(=O)n([C@H]2C[C@H](O)[C@@H](CO)O2)cc1/C=C/Br", "cell line": "Human T-lymphoblasts", "method": "cytopathic effect", "result": ">1 µM"}
{"smiles": "C=CCOc1nc(N)nc2c1ncn2/C=C1/C[C@@H]1CO", "strain": "TYPE 6A", "cell line": "HSB-2", "method": "flow cytometry", "result": "3.8 µM"}
{"smiles": "Nc1ncc2c(ncn2COC(CO)CO)n1", "cell line": "Human T-lymphoblasts", "method": "cytopathic effect", "result": "0.0033 µM"}
{"smiles": "C=CCNc1nc(N)nc2c1ncn2/C=C1/C[C@@H]1CO", "strain": "TYPE 6B", "cell line": "HSB-2", "method": "flow cytometry", "result": "3.6 µM"}
{"smiles": "OC[C@H]1O[C@@H](n2c(Br)nc3cc(Cl)c(Cl)cc32)[C@H](O)[C@@H]1O", "strain": "Z-29 (subtype 6B)", "cell line": "CBL", "method": "flow cytometry", "result": "125 µM"}
{"smiles": "N#CC1C(c2ccc(Cl)cc2)Nc2c(ccn2Cc2ccccc2)S1(=O)=O", "strain": "Z29 (TYPE 6B)", "cell line": "MOLT-3", "method": "cytopathic effect", "result": ">20 µg/mL"}
{"smiles": "COc1nc(N)nc2c1ncn2/C=C1/CC1(CO)CO", "strain": "TYPE 6A", "cell line": "HSB-2", "method": "flow cytometry", "result": "28.4 µM"}

Repeating the first 2 entries:

smiles	strain	cell line	method	result
Nc1nc(NCC2CC2)c2ncn(/C=C3/C[C@@H]3CO)c2n1	TYPE 6B	HSB-2	flow cytometry	90 µM
NC1=NC2C(C=CN2CC(CO)CCO)C(=O)N1	-	Human T-lymphoblasts	cytopathic effect	≥50 µM